Data taken from patent publication US20250115620A1, “BRIDGED TRICYCLIC CARBAMOYLPYRIDONE COMPOUNDS AND USES THEREOF” (Gilead Sciences, Inc., priority 2022, published 2025).

Test system: pLAI reporter virus
Type: cell-based, HIV
Conditions: EC50 (50% HS)/EC50 (CCM)

Compound | RLUC 50% HS Shift
CCN1C[C@@]2(CC[C@H](C)N3C[C@H]2n2cc(C(=O)NCc4c(F)cc(F)cc4F)c(=O)c(O)c2C3=O)OC1=O [Example 63, (3′S,5R,7′R)-3-ethyl-12′-hydroxy-3′-methyl-1′,2,11′-trioxo-N-(2,4,6-trifluorobenzyl)-1′,4′,5′,11′-tetrahydro-3′H,7′H-spiro[oxazolidine-5,6′-[2,7]methanopyrido[1,2-a][1,4]diazonine]-10′-carboxamide] | 1×
COC1=NO[C@@]2(CC[C@H](C)N3C[C@H]2n2cc(C(=O)NCc4ncc(F)c(Cl)c4F)c(=O)c(O)c2C3=O)C1 [Example 64, (3′S,5S,7′R)—N-((4-chloro-3,5-difluoropyridin-2-yl)methyl)-12′-hydroxy-3-methoxy-3′-methyl-1′,11′-dioxo-1′,4′,5′,11′-tetrahydro-3′H,4H,7′H-spiro[isoxazole-5,6′-[2,7]methanopyrido[1,2-a][1,4]diazonine]-10′-carboxamide] | 500×
COC1=NO[C@@]2(CC[C@H](C)N3C[C@H]2n2cc(C(=O)NCc4cc(F)c(F)cc4F)c(=O)c(O)c2C3=O)C1 [Example 65, (3′S,5S,7′R)-12′-hydroxy-3-methoxy-3′-methyl-1′,11′-dioxo-N-(2,4,5-trifluorobenzyl)-1′,4′,5′,11′-tetrahydro-3′H,4H,7′H-spiro[isoxazole-5,6′-[2,7]methanopyrido[1,2-a][1,4]diazonine]-10′-carboxamide] | 178×
C[C@H]1CC[C@]2(CC(CF)=NO2)[C@H]2CN1C(=O)c1c(O)c(=O)c(C(=O)NCc3ncc(F)c(Cl)c3F)cn12 [Example 66, (3′S,5S,7′R)—N-((4-chloro-3,5-difluoropyridin-2-yl)methyl)-3-(fluoromethyl)-12′-hydroxy-3′-methyl-1′,11′-dioxo-1′,4′,5′,11′-tetrahydro-3′H,4H,7′H-spiro[isoxazole-5,6′-[2,7]methanopyrido[1,2-a][1,4]diazonine]-10′-carboxamide] | 702×
CCC1=NO[C@@]2(CC[C@H](C)N3C[C@H]2n2cc(C(=O)NCc4c(F)cc(F)cc4F)c(=O)c(O)c2C3=O)C1 [Example 67, (3′S,5S,7′R)-3-ethyl-12′-hydroxy-3′-methyl-1′,11′-dioxo-N-(2,4,6-trifluorobenzyl)-1′,4′,5′,11′-tetrahydro-3′H,4H,7′H-spiro[isoxazole-5,6′-[2,7]methanopyrido[1,2-a][1,4]diazonine]-10′-carboxamide] | 634×
CCCC1=NO[C@@]2(CC[C@H](C)N3C[C@H]2n2cc(C(=O)NCc4c(F)cc(F)cc4F)c(=O)c(O)c2C3=O)C1 [Example 68, (3′S,5S,7′R)-12′-hydroxy-3′-methyl-1′,11′-dioxo-3-propyl-N-(2,4,6-trifluorobenzyl)-1′,4′,5′,11′-tetrahydro-3′H,4H,7′H-spiro[isoxazole-5,6′-[2,7]methanopyrido[1,2-a][1,4]diazonine]-10′-carboxamide] | 285×
C[C@H]1CC[C@]2(CC(CCF)=NO2)[C@H]2CN1C(=O)c1c(O)c(=O)c(C(=O)NCc3c(F)cc(F)cc3F)cn12 [Example 69, (3′S,5S,7′R)-3-(2-fluoroethyl)-12′-hydroxy-3′-methyl-1′,11′-dioxo-N-(2,4,6-trifluorobenzyl)-1′,4′,5′,11′-tetrahydro-3′H,4H,7′H-spiro[isoxazole-5,6′-[2,7]methanopyrido[1,2-a][1,4]diazonine]-10′-carboxamide] | 471×
C[C@@H](F)C1=NO[C@@]2(CC[C@H](C)N3C[C@H]2n2cc(C(=O)NCc4c(F)cc(F)cc4F)c(=O)c(O)c2C3=O)C1 [Example 70, (3′S,5S,7′R)-3-((R)-1-fluoroethyl)-12′-hydroxy-3′-methyl-1′,11′-dioxo-N-(2,4,6-trifluorobenzyl)-1′,4′,5′,11′-tetrahydro-3′H,4H,7′H-spiro[isoxazole-5,6′-[2,7]methanopyrido[1,2-a][1,4]diazonine]-10′-carboxamide] | 441×
C[C@H]1CC[C@]2(CC(C(C)(F)F)=NO2)[C@H]2CN1C(=O)c1c(O)c(=O)c(C(=O)NCc3c(F)cc(F)cc3F)cn12 [Example 71, (3′S,5S,7′R)-3-(1,1-difluoroethyl)-12′-hydroxy-3′-methyl-1′,11′-dioxo-N-(2,4,6-trifluorobenzyl)-1′,4′,5′,11′-tetrahydro-3′H,4H,7′H-spiro[isoxazole-5,6′-[2,7]methanopyrido[1,2-a][1,4]diazonine]-10′-carboxamide] | 412×
C[C@H]1CC[C@]2(CC=NO2)[C@H]2CN1C(=O)c1c(O)c(=O)c(C(=O)NCc3c(F)cc(F)cc3F)cn12 [Example 72, (3′S,5S,7′R)-12′-hydroxy-3′-methyl-1′,11′-dioxo-N-(2,4,6-trifluorobenzyl)-1′,4′,5′,11′-tetrahydro-3′H,4H,7′H-spiro[isoxazole-5,6′-[2,7]methanopyrido[1,2-a][1,4]diazonine]-10′-carboxamide] | 361×
C[C@H]1CC[C@]2(CC(C(F)(F)F)=NO2)[C@H]2CN1C(=O)c1c(O)c(=O)c(C(=O)NCc3c(F)cc(F)cc3F)cn12 [Example 73, (3′S,5S,7′R)-12′-hydroxy-3′-methyl-1′,11′-dioxo-N-(2,4,6-trifluorobenzyl)-3-(trifluoromethyl)-1′,4′,5′,11′-tetrahydro-3′H,4H,7′H-spiro[isoxazole-5,6′-[2,7]methanopyrido[1,2-a][1,4]diazonine]-10′-carboxamide] | 326×
C[C@H]1CC[C@]2(CC(N3CCC3)=NO2)[C@H]2CN1C(=O)c1c(O)c(=O)c(C(=O)NCc3c(F)cc(F)cc3F)cn12 [Example 74, (3′S,5S,7′R)-3-(azetidin-1-yl)-12′-hydroxy-3′-methyl-1′,11′-dioxo-N-(2,4,6-trifluorobenzyl)-1′,4′,5′,11′-tetrahydro-3′H,4H,7′H-spiro[isoxazole-5,6′-[2,7]methanopyrido[1,2-a][1,4]diazonine]-10′-carboxamide] | 12×
C[C@H]1CC[C@]2(CC(N3CCCC3)=NO2)[C@H]2CN1C(=O)c1c(O)c(=O)c(C(=O)NCc3c(F)cc(F)cc3F)cn12 [Example 75, (3′S,5S,7′R)-12′-hydroxy-3′-methyl-1′,11′-dioxo-3-(pyrrolidin-1-yl)-N-(2,4,6-trifluorobenzyl)-1′,4′,5′,11′-tetrahydro-3′H,4H,7′H-spiro[isoxazole-5,6′-[2,7]methanopyrido[1,2-a][1,4]diazonine]-10′-carboxamide] | 6×
C[C@H]1CC[C@]2(CC(n3cnnc3)=NO2)[C@H]2CN1C(=O)c1c(O)c(=O)c(C(=O)NCc3c(F)cc(F)cc3F)cn12 [Example 76, (3′S,5S,7′R)-12′-hydroxy-3′-methyl-1′,11′-dioxo-3-(4H-1,2,4-triazol-4-yl)-N-(2,4,6-trifluorobenzyl)-1′,4′,5′,11′-tetrahydro-3′H,4H,7′H-spiro[isoxazole-5,6′-[2,7]methanopyrido[1,2-a][1,4]diazonine]-10′-carboxamide] | 8×
C[C@H]1CC[C@]2(CC(n3cccn3)=NO2)[C@H]2CN1C(=O)c1c(O)c(=O)c(C(=O)NCc3c(F)cc(F)cc3F)cn12 [Example 77, (3′S,5S,7′R)-12′-hydroxy-3′-methyl-1′,11′-dioxo-3-(1H-pyrazol-1-yl)-N-(2,4,6-trifluorobenzyl)-1′,4′,5′,11′-tetrahydro-3′H,4H,7′H-spiro[isoxazole-5,6′-[2,7]methanopyrido[1,2-a][1,4]diazonine]-10′-carboxamide] | 35×
C[C@H]1CC[C@]2(CC(C#CC(C)(C)S(C)(=O)=O)=NO2)[C@H]2CN1C(=O)c1c(O)c(=O)c(C(=O)NCc3c(F)cc(F)cc3F)cn12 [Example 79, (3′S,5S,7′R)-12′-hydroxy-3′-methyl-3-(3-methyl-3-(methylsulfonyl)but-1-yn-1-yl)-1′,11′-dioxo-N-(2,4,6-trifluorobenzyl)-1′,4′,5′,11′-tetrahydro-3′H,4H,7′H-spiro[isoxazole-5,6′-[2,7]methanopyrido[1,2-a][1,4]diazonine]-10′-carboxamide] | 1×
C[C@H]1CC[C@@]2(CC(C#CC(C)(C)S(C)(=O)=O)=NO2)[C@H]2CN1C(=O)c1c(O)c(=O)c(C(=O)NCc3c(F)cc(F)cc3F)cn12 [Example 80, (3′S,5R,7′R)-12′-hydroxy-3′-methyl-3-(3-methyl-3-(methylsulfonyl)but-1-yn-1-yl)-1′,11′-dioxo-N-(2,4,6-trifluorobenzyl)-1′,4′,5′,11′-tetrahydro-3′H,4H,7′H-spiro[isoxazole-5,6′-[2,7]methanopyrido[1,2-a][1,4]diazonine]-10′-carboxamide] | 2×
C[C@H]1CC[C@]2(CC(C#CC(C)(C)O)=NO2)[C@H]2CN1C(=O)c1c(O)c(=O)c(C(=O)NCc3c(F)cc(F)cc3F)cn12 [Example 81, (3′S,5S,7′R)-12′-hydroxy-3-(3-hydroxy-3-methylbut-1-yn-1-yl)-3′-methyl-1′,11′-dioxo-N-(2,4,6-trifluorobenzyl)-1′,4′,5′,11′-tetrahydro-3′H,4H,7′H-spiro[isoxazole-5,6′-[2,7]methanopyrido[1,2-a][1,4]diazonine]-10′-carboxamide] | 1×
C[C@H]1CC[C@]2(CC(F)=NO2)[C@H]2CN1C(=O)c1c(O)c(=O)c(C(=O)NCc3c(F)cc(F)cc3F)cn12 [Example 82, (3′S,5S,7′R)-3-fluoro-12′-hydroxy-3′-methyl-1′,11′-dioxo-N-(2,4,6-trifluorobenzyl)-1′,4′,5′,11′-tetrahydro-3′H,4H,7′H-spiro[isoxazole-5,6′-[2,7]methanopyrido[1,2-a][1,4]diazonine]-10′-carboxamide] | 143×
[2H]C1C(OC)=NO[C@@]12CC[C@H](C)N1C[C@H]2n2cc(C(=O)NCc3c(F)cc(F)cc3F)c(=O)c(O)c2C1=O (stereo partly drawn) [Example 83, (3′S,5S,7′R)-12′-hydroxy-3-methoxy-3′-methyl-1′,11′-dioxo-N-(2,4,6-trifluorobenzyl)-1′,4′,5′,11′-tetrahydro-3′H,4H,7′H-spiro[isoxazole-5,6′-[2,7]methanopyrido[1,2-a][1,4]diazonine]-4-d-10′-carboxamide] | 137×
